Results taken from patent US20150203548A1 (GOVERNMENT OF THE UNITED STATES OF AMERICA AS REPRESENTED …, published 2015).

Target: T1, Staphylococcal Enterotoxin B (SEB) (UniProt P01552 28-266)
T1 sequence: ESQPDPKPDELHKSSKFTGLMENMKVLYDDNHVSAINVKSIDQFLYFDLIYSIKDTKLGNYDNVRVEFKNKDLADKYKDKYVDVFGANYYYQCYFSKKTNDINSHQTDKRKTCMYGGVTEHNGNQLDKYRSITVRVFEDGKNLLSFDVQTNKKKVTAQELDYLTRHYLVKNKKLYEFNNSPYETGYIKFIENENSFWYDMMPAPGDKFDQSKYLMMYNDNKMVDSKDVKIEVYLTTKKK
Test: SPR (ProteON XPR36), antigen-coated chip

B1: sdAb A3-ATS (VHH)
VHH: EVQLVESGGGLVQAGDSLRLSCTASGRTFSRAVMGWFRQAPGKEREFVAAISAAPGTAYYAFYADSVRGRFSISADSAKNTVYLQMNSLKPEDTAVYYCAADLKMQVAAYMNQRSVDYWGQGTQVTVSS
binding result: binds
